## Percent effect of library compounds

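Phenotypic screen: M. tuberculosis growth, glucose 7H9 medium, 3 days; the read-out is not stated. Tested at 500 µM. Direction is inferred from retests: higher values go with more growth inhibition. Of about 18,000 compounds tested this way, about 1,400 (7.9%) reached 50% or more in at least one test.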

Values are the deposited “Percent Effect”, in %. How 0% and 100% were set is not recorded. Most values in the screen are low, and negative values occur. This is part of a subset picked to be rich in strong results.

Compound: CNC(=O)CNC(=O)c1ccc(C#N)c(C)n1
percent effect: -11.03%

Compound: NC(=O)COCCNC(=O)CC1CCCCC1
percent effect: -2.442%

Compound: CC(C)(C)C(=O)Nc1cccc(C(=O)NC2CC2)c1
percent effect: 12.23%

Compound: CCN1CCN(Cc2nc(C3CCOC3)no2)CC1 (centres unmarked)
percent effect: -3.829%

Compound: NS(=O)(=O)N1CCN(Cc2cccc3nonc23)CC1
percent effect: 4.054%

Compound: COc1cccc(Nc2ncnc(N)n2)c1
percent effect: 28.88%

Compound: CC(O)C1CCN(CCC(=O)NC(C)(C)C)CC1 (centres unmarked)
percent effect: -8.451%

Compound: O=C(Nc1ccc2[nH]ncc2c1)C1CCCO1 (centres unmarked)
percent effect: 26.17%

Compound: CCNCCNC(=O)CCc1ccc(F)cc1
percent effect: 2.245%

Compound: CCOC(=O)CC1C(=O)NCCN1CCC#N (centres unmarked)
percent effect: -1.454%

Compound: O=C(CCn1nc2ccccn2c1=O)N1CCNCC1
percent effect: 22.54%

Compound: CCOCCOC1CNC1
percent effect: 6.7%

Compound: COc1ccc2[nH]c(CNC(=O)CNC(N)=O)cc2c1
percent effect: 21.54%

Compound: CCc1nccc(CN2CCC(NC(C)=O)C2)n1 (centres unmarked)
percent effect: -9.606%

Compound: NCCc1cccc2ncccc12
percent effect: 9.689%

Compound: Cn1ccnc1N1CCN(c2ccc(C#N)cn2)CC1
percent effect: 52.45%

Compound: Cc1ccc(C)c(NC(=O)CCN2CCCC2)c1
percent effect: 24.72%

Compound: O=S(=O)(CCO)CCc1c(F)cccc1Cl
percent effect: 17.05%

Compound: CCC(CO)(CO)NCc1csc(-c2cccs2)n1
percent effect: 63.5%

Compound: NCC(O)c1ccc(Cl)c(Cl)c1 (centres unmarked)
percent effect: 76.48%

Compound: COc1ccc(C(=O)NCc2c(C)noc2C)cn1
percent effect: 32.14%

Compound: OCC1CCN(Cc2cc(Cl)c3c(c2)OCCO3)CC1
percent effect: 32.16%

Compound: CC(=O)NCc1ccc(C(C)=O)s1
percent effect: 17.5%

Compound: CNCc1occc1C
percent effect: -9.286%

Compound: COc1ccc(CCN)cc1F
percent effect: 52.69%

Compound: O=S(=O)(NCCO)c1ccc2ccccc2c1
percent effect: 9.139%

Compound: Fc1cccnc1NCc1cc[nH]n1
percent effect: 15.15%

Compound: CCC(C)NC(=O)COC(=O)c1c(C)nsc1NC (centres unmarked)
percent effect: 1.34%

Compound: NCCS(=O)(=O)N1CCc2ccccc21
percent effect: 77.9%

Compound: CN1CCN(Cc2ccc(N(C)C)nc2)CCC1=O
percent effect: -14.37%

Compound: O=C(CN1CCCC(O)C1)NCCCc1ncc[nH]1 (centres unmarked)
percent effect: 0.7018%

Compound: CCNC(=O)c1cc(N2CCCC(C)CC2)ccn1 (centres unmarked)
percent effect: 57.96%

Compound: O=C(c1ccc(Br)c(O)c1)N1CCCC1CCCO (centres unmarked)
percent effect: 16.57%

Compound: COc1ccc(C(C)NCC(C)(C)C(N)=O)c(F)c1 (centres unmarked)
percent effect: -7.786%

Compound: CCC(CC)C(CNC(=O)c1ccc(O)nc1)N(C)C (centres unmarked)
percent effect: 10.56%

Compound: CCc1cnc(CCN)s1
percent effect: 48.92%

Compound: OCC1CCCN(c2ncccn2)C1 (centres unmarked)
percent effect: 12.63%

Compound: Cc1ccc(C(=O)NCCSc2nccn2C)c(=O)[nH]1
percent effect: 27.64%

Compound: OCCN1CCN(c2nc(-c3ccccc3)no2)CC1
percent effect: 59.47%

Compound: Cc1ccnc(NC(=O)CC(C)C)n1
percent effect: -5.522%

Compound: CC(C)CCNC(=O)Nc1ccc(-n2cccn2)nc1
percent effect: 55.13%

Compound: COCCNC(=O)c1cc2cc(C)ccc2n1C
percent effect: 77.85%

Compound: NCCC(=O)N1CCCC(CCc2ccc(F)cc2)C1 (centres unmarked)
percent effect: 71.72%

Compound: CS(=O)(=O)c1cccc(S(=O)(=O)Nc2ccccc2)c1
percent effect: 35.13%

Compound: OCC12CCCN(CC1)C2 (centres unmarked)
percent effect: 1.59%

Compound: CC(C(=O)Nc1sccc1C(N)=O)N1CCCCC1 (centres unmarked)
percent effect: 19.47%

Compound: Cc1nc(C(C)C)cc(N(C)CC(O)CO)n1 (centres unmarked)
percent effect: 4.304%

Compound: CCN(CC(N)=O)Cc1ccccc1NC(C)=O
percent effect: -2.993%

Compound: CN(C)S(=O)(=O)NCCNc1cccc(Br)c1
percent effect: 82.42%

Compound: NCc1ccc(N2CCNC2=O)cc1
percent effect: -3.356%

Compound: Cc1ccoc1C(=O)N(C)C1CCN(C)CC1
percent effect: 9.009%

Some entries from above, unchanged:

| Compound | percent effect |
|---|---|
| `CCc1cnc(CCN)s1` | 48.92% |
| `COc1ccc(C(C)NCC(C)(C)C(N)=O)c(F)c1` (centres unmarked) | -7.786% |
| `CCc1nccc(CN2CCC(NC(C)=O)C2)n1` (centres unmarked) | -9.606% |
| `CCC(C)NC(=O)COC(=O)c1c(C)nsc1NC` (centres unmarked) | 1.34% |
| `O=S(=O)(CCO)CCc1c(F)cccc1Cl` | 17.05% |

From ChEMBL document CHEMBL3988442, “University of Dundee, Small-Polar-MMV Screening Library” (2021).